Data as given in PubChem BioAssay AID504761 (Drosophila RNAi Screening Center, 2011)

Screen: 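Genome-wide fly cell screen for genes dengue virus requires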 (primary screen)
Cell system: D.Mel-2 cells from Drosophila
Reagents: long dsRNA against Drosophila genes
Conditions: infection with dengue virus type 2; dose and infection time not stated
Read-out: 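Per well on two replicate plates, imaging gave the percent of cells positive for viral envelope protein, ranked by infection, and a nuclear count of cells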
Scale: infection score: higher = more virus-infected cells; cell count: higher = more cells in the well
Hit rule: 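Low infection ranks in the two replicates (chance level up to 0.065) followed by a retest with a 1.5-fold or larger significant decrease, p below 0.05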
Calls: active = confirmed: knock-down lowers infection; inactive = not picked or not confirmed
The deposit covers about 22,000 reagents; shown is an unselected part of those that have a named target and a result. In the full data, 116 (0.52%) were called active. 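Calls depend on retest data that are not deposited; infection was ranked per plate without normalising between plates; the unit of the infection score is not given.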 Raw values vary from plate to plate and are shown uncorrected. A plus sign joins genes that one reagent is predicted to hit. Not stated in the record: the amount of reagent, the time to read-out.

target	dsRNA	infection score, replicate 1	infection score, replicate 2	cell count, replicate 1	cell count, replicate 2	Outcome
CG17776	DRSC18136	5.85	1.64	6271	5810	inactive
CG17776	DRSC27477	14.2	22.8	2539	4580	inactive
HP6 (Heterochromatin protein 6)	DRSC00471	6.41	18.2	6537	6393	inactive
CG18853 + phr	DRSC27486	6.81	9.74	5818	6551	inactive
CG3868	DRSC10380		11.6	286	6328	inactive
GLaz (Glial Lazarillo)	DRSC07431	4.17	7.27	6769	6026	inactive
Nplp1 (Neuropeptide-like precursor 1)	DRSC04370	17.5	41.2	6398	2192	inactive
CG5160	DRSC02821	11.7	9.88	5356	6339	inactive
CG5160	DRSC28456	14.7	3.45	5291	1015	inactive
CG42843 (retired record)	DRSC02231	2.32	3.92	6381	6559	inactive
CG42843 (retired record)	DRSC02233	2.77	2.08	6759	6551	inactive
CG42843 (retired record)	DRSC28467	9.64	7.87	5312	5375	inactive
CG17234	DRSC00490	8.34	2.99	5875	6349	inactive
eag (ether a go-go)	DRSC19067	0.83	0.5	6300	6387	inactive
eag (ether a go-go)	DRSC20328	2.76	1.99	6593	6881	inactive
eag (ether a go-go)	DRSC28295	0.21	1.29	469	1553	inactive
enc (encore)	DRSC08716	1.03	1.39	6301	6497	inactive
enc (encore)	DRSC27545	3.57	2.67	6869	6826	inactive
angel	DRSC04670	5.66	22.2	6099	5686	inactive
angel	DRSC21326	0.97	2.28	6286	6634	inactive
Kpc1 (Kip1 ubiquitination-promoting complex subunit 1)	DRSC16107	6.88	20.1	6451	6542	inactive
Vlet (Valette)	DRSC19845	2.46	7.55	6551	6131	inactive
Vlet (Valette)	DRSC26731	8.28	5.69	5774	6697	inactive
CG17977	DRSC06700	2.57	9.59	6490	6217	inactive
ema (endosomal maturation defective)	DRSC14536	3.07	4.54	6549	6454	inactive
LanB1	DRSC03360	2.1	2.95	6341	6926	inactive
LanB1	DRSC27259	11.4	7.3	5178	6066	inactive
CG15198	DRSC19645	7	9.28	6370	6651	inactive

Ordered by “cell count, replicate 2” (ascending): some entries from above
target	dsRNA	infection score, replicate 1	infection score, replicate 2	cell count, replicate 1	cell count, replicate 2	Outcome
eag (ether a go-go)	DRSC28295	0.21	1.29	469	1553	inactive
angel	DRSC04670	5.66	22.2	6099	5686	inactive
Vlet (Valette)	DRSC19845	2.46	7.55	6551	6131	inactive
eag (ether a go-go)	DRSC19067	0.83	0.5	6300	6387	inactive
enc (encore)	DRSC08716	1.03	1.39	6301	6497	inactive
Kpc1 (Kip1 ubiquitination-promoting complex subunit 1)	DRSC16107	6.88	20.1	6451	6542	inactive
angel	DRSC21326	0.97	2.28	6286	6634	inactive
enc (encore)	DRSC27545	3.57	2.67	6869	6826	inactive
eag (ether a go-go)	DRSC20328	2.76	1.99	6593	6881	inactive

Additional entries follow:
target	dsRNA	infection score, replicate 1	infection score, replicate 2	cell count, replicate 1	cell count, replicate 2	Outcome
Agpat4 (1-Acylglycerol-3-phosphate O-acyltransferase 4)	DRSC10446	2.29	2.02	5905	6440	inactive
Agpat4 (1-Acylglycerol-3-phosphate O-acyltransferase 4)	DRSC26102	3.5	15.6	5948	5904	inactive
Eip63F-1 (Ecdysone-induced protein 63F 1)	DRSC08659	1.29	5.91	6210	5681	inactive
Eip63F-1 (Ecdysone-induced protein 63F 1)	DRSC25229	2.04	0.83	6027	6302	inactive
Cdc37 (Cell division cycle 37)	DRSC08648	3.14	0.94	4304	4269	inactive
Cdc37 (Cell division cycle 37)	DRSC27723	7.17	4.45	6412	6219	inactive
CG31659	DRSC00760	1.25	1.88	6614	6957	inactive
CG33310	DRSC01897	5.29	3.66	6578	7103	inactive
CG33310	DRSC24914	5.23	1.1	6518	5991	inactive
betaTub60D (beta-Tubulin at 60D)	DRSC04673	2.17	5.61	6086	6331	inactive
betaTub60D (beta-Tubulin at 60D)	DRSC22218	1.18	1.68	7183	7308	inactive
betaTub60D (beta-Tubulin at 60D)	DRSC23872	6.26	7.56	7044	5911	inactive
CG4714	DRSC06883	19.5	4.37	6109	6431	inactive
CG14212	DRSC19568	3.25	0.16	5605	5787	active
CG14212	DRSC27314	16.2	12.1	6268	5632	inactive
Obp69a (Odorant-binding protein 69a)	DRSC11247	1.83	4.25	6778	6476	inactive
Obp69a (Odorant-binding protein 69a)	DRSC27681	4.03	14.8	6593	5619	inactive
l(2)gd1 (lethal (2) giant discs 1)	DRSC02773	10.7	3.05	6060	5900	inactive
l(2)gd1 (lethal (2) giant discs 1)	DRSC29178	30.4	18.1	5288	3853	inactive
Prosbeta4R2 (Proteasome beta4 subunit-related 2)	DRSC00503	3.22	1.36	6240	6375	inactive
Prosbeta4R2 (Proteasome beta4 subunit-related 2)	DRSC28235	17.6	3.53	5631	623	inactive
beat-IV (beaten path IV)	DRSC14195	10	9.12	6536	6765	inactive
beat-IV (beaten path IV)	DRSC14673	1.96	0.35	510	571	inactive
CG7271 + term	DRSC30034	12.5	3.06	2628	6445	inactive
Torsin	DRSC18570	11.1	41.9	5497	5101	inactive
side-VII (sidestep VII)	DRSC14578	24.6	18.5	6087	6500	inactive
Srp14 (Signal recognition particle 14)	DRSC15797	7.79	5.92	6254	6622	inactive
Gpdh3 (Glycerol-3-phosphate dehydrogenase 3)	DRSC13561	4.39	3.3	6240	5729	inactive
Gpdh3 (Glycerol-3-phosphate dehydrogenase 3)	DRSC15325	4.19	0.88	6131	7191	inactive
CG7059	DRSC16187	5.32	5.94	1806	5659	inactive
CG7059	DRSC28990	11.4	8.79	4615	6203	inactive
